Series [1] has as its target Rev protein (HIV-1, UniProt P04618 P04618:1-116). Kind of series: SPR; printed as Kp. Conditions: tags: full-length; label: biotin (SPR surface) or 5'-32P (filter); hammerhead ribozyme.
Series [2] shares this target. The series can be described thus: SPR; printed as Kp. Conditions: tags: full-length.

Sequences of proteins named here, by UniProt entry; tags and fusion partners are left off.
UniProt P04618, whole entry: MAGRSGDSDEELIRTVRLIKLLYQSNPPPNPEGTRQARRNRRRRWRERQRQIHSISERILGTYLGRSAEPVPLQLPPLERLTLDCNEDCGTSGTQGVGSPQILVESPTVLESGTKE

We go through two molecules from patent US20050202423A1, “Method for identifying compounds or lead structures against rna target motifs and rna/protein interactions” (priority 2000, published 2005).

B1: RRR (Rev-responsive ribozyme, RBE in stem II) (ssRNA)
RNA: GGGUCCUCUGAUGAGCUCUGGGCGCAGCUUCGGCUGACGGUACUUGCGAAACUCGU
B1 registered a dissociation constant Kd with Rev protein [1] of 1.4 nM.

B2: AIR (aptamer-inhibited ribozyme) (ssRNA)
RNA: GGGACUCGCUUCGGCUUGAGAUACCAAAAAGGGUCCUCUGAUGAGGCCGUUAGGCCGAAACUCGU
In the series with Rev protein [2], B2 returned a Kd of 1.3 nM.
